A mixed list of measured activities; the numbers were collected in NIAID ChemDB.

All rows: growth or infection tests; organism: HIV-1

ECn: concentration that inhibits the pathogen or its effect by n%. An empty or dashed field is not shown. Conditions beyond the fields shown may differ between rows. a–b is a range or a potency band.

SMILES	mutations	cell line	read by	strain or isolate	read-out	result
O=c1[nH]cnc2c1ncn2[C@H]1CC[C@@H](CO)O1	RT-M184V	PBMC	p24	Recombinant	EC50	5–10 µM
Fc1cccc(F)c1C1SCc2nc3ccccc3n21	-	CEM + CEM-SS	cytopathic effect / XTT	IIIB	EC50	3.4 µM
CCN1C(=O)N(Cc2cccc(Cl)c2)S(=O)(=O)c2cscc21	RT-Y181C	CEM	syncytia	-	EC50	>56 µM
C1CNCCNCCCN(CCCN2CCCNCCNCCCNCC2)CCNC1	-	CD4+HELA + HeLa	plaque count / antigen	IIIB	EC50	3.73 µM
Cc1ccc(/C=C/c2cc(C)c(Oc3ccnc(Nc4ccc(C#N)cc4)n3)c(C)c2)cc1	Y188L	MT-4	MTT	IIIB	EC50	1.326 µM
COc1ccc(S(=O)(=O)N(CC(C)C)C[C@@H](O)[C@H](Cc2ccccc2)NC(=O)O[C@H]2CO[C@@H]3O[C@H]4OCC[C@H]4[C@@H]32)cc1	-	PBMC	p24 / luminescence	-	EC50	>1 µM
C#Cc1ccc(Nc2nccc(Oc3c(C)cc(-c4cn(-c5ccc(C(=O)O)cc5)nn4)cc3C)n2)cc1	Y181C	MT-4	MTT	IIIB	EC50	0.84 µM
CC(=O)Nc1cc(C#N)cc(C(=O)c2cc(Cl)ccc2OCC(=O)Nc2ccc(S(N)(=O)=O)cc2C)c1	K103N	HeLa	-	-	EC50	0.23 µM
CC(C)(C)NC(=O)[C@@H]1C[C@@H]2CCCC[C@@H]2CN1C[C@@H](O)[C@H](Cc1ccccc1)NC(=O)[C@H](CC(N)=O)NC(=O)c1ccc2ccccc2n1	PR-M46I I84V	MT-4	p24	NL4-3-P28 (PR M46I I84V)	EC90	0.16 µM
Cc1ccnc2c1NC(=O)c1cccnc1N2C1CC1	RT-K103N	MAGI (CCR5) + MAGI	β-galactosidase	NL4-3	EC50	4.3 µM
Cc1cc(S(N)(=O)=O)ccc1NC(=O)COc1ccc(Cl)cc1C(=O)c1cc(Cl)cc(C#N)c1	K103N	HeLa	-	-	EC50	0.0007 µM
Nc1cc(O)c2cc(N=Nc3ccc(N=Nc4ccc(N=Nc5ccc6cc(S(=O)(=O)O)cc(S(=O)(=O)O)c6c5)c5ccccc45)c4cc(S(=O)(=O)O)ccc34)c(S(=O)(=O)O)cc2c1	-	CEM + CEM-SS	cytopathic effect / XTT	RF	EC50	7 µM
Cc1cn([C@@H]2O[C@H](CO[Si](C)(C)C(C)(C)C)C3(OS(=O)(=O)C=C3N)[C@H]2O[Si](C)(C)C(C)(C)C)c(=O)n(C)c1=O	RT-L100I	CEM	syncytia	IIIB-TIBO(0.5)(RT-L100I)	EC50	0.04 µg/mL
O=S(=O)(c1ccccc1)c1ccccc1	RT-Y181C	CEM + CEM-SS	cytopathic effect / XTT	UC38-R(RT-Y181C	EC50	5.3 µM
Cc1cn([C@H]2C[C@H](N=[N+]=[N-])[C@@H](CO)O2)c(=O)[nH]c1=O	-	CEM + CEM-SS	cytopathic effect / XTT	PM16	EC50	0.002 µM
N#CCN1C(=O)N(Cc2ccccc2)S(=O)(=O)c2cscc21	RT-D67N K70R T215F K219Q	MT-4	syncytia	ADP/141	EC50	1.2 µM
C#C[C@]1(CO)O[C@@H](n2cnc3c(N)nc(F)nc32)C[C@@H]1O	M184V	MT4-GFP	fluorescence	Clinical isolate	EC50	0.00725 µM
C1CNCCNCCCN[C@H]([C@@H]2CNCCCNCCNCCCN2)CNC1	-	MT-4	cytopathic effect / MTT	IIIB	EC50	0.43 µM
Cc1ccnc2c1NC(=O)c1cccnc1N2C1CC1	-	CEM	syncytia	IIIB-TIBO(0.1)	EC50	0.06 µg/mL
COC(=O)c1cc(C#N)cc(C(=O)c2cc(Cl)ccc2OCC(=O)Nc2ccc(S(N)(=O)=O)cc2C)c1	K103N	HeLa	-	-	EC50	0.0014 µM
CC(C)[C@H](NC(=O)c1ccc2ccccc2n1)C(=O)N[C@@H](Cc1ccccc1)[C@H](O)CN1CC[C@@H](OCc2ccncc2)C[C@H]1C(=O)NC(C)(C)C	-	C8166	p24	IIIB	EC50	0.005 µM
C#Cc1ccc(Nc2nccc(Oc3c(C)cc(-c4cn(Cc5ccc([N+](=O)[O-])cc5)nn4)cc3C)n2)cc1	F227L and V106A	MT-4	MTT	IIIB	EC50	33.83 µM
Cc1ccnc2c1NC(=O)c1cccnc1N2C1CC1	RT-P236L	MAGI	β-galactosidase	NNRTI-resistant (RT P236L)	EC50	0.056 µM
CC(C)CN(C[C@@H](O)[C@H](Cc1ccccc1)NC(=O)O[C@H]1CCOC1)S(=O)(=O)c1ccc(N)cc1	L23I E34Q K43I M46I I50L G51A L63P A71V V82A T91A	MT-4	p24 / luminescence	NL4-3	EC50	0.263 µM
c1cc(CN2CCCNCCNCCCNCC2)ccc1CN1CCCNCCNCCCNCC1	L-CA resistant	MT-4	cytopathic effect / MTT	NL4-3	EC50	0.02 µM
COc1cc(C(F)(F)F)cc(S(=O)(=O)c2cccc(N)c2C#N)c1	-	MT-4	cytopathic effect	IIIB	EC50	0.05 µM
Cc1ccnc2c1NC(=O)c1cccnc1N2C1CC1	RT-D67N K70R T215F K219Q	MT-4	syncytia	ADP/141	EC50	0.03 µM
Nc1ccn([C@H]2CC[C@@H](CO)O2)c(=O)n1	RT-M41L T215Y	MT-4	cytopathic effect	AZT-resistant (RT M41L T215Y)	EC50	0.045 µM
Nc1ccn([C@H]2CC[C@@H](CO)O2)c(=O)n1	RT-M184V	MT-4	p24	IIIB BCH-189-resistant (RT M184V)	EC50	2.6 µM
O=C1N(Cc2ccc(CO)cc2)[C@H](Cc2ccccc2)[C@H](O)[C@@H](O)[C@@H](Cc2ccccc2)N1Cc1ccc(CO)cc1	PR-L10R M46I	MT-4	p24	NL4-3	EC95	0.2 µM
C#Cc1ccc(Nc2nccc(Oc3c(C)cc(-c4cn(Cc5cccc(C(=O)OC)c5)nn4)cc3C)n2)cc1	Y181C	MT-4	MTT	IIIB	EC50	>4.78 µM
Cc1cn([C@H]2C[C@H](N=[N+]=[N-])[C@@H](CO)O2)c(=O)[nH]c1=O	-	CEM + CEM-SS	cytopathic effect / XTT	SK1	EC50	0.009 µM
Cc1cc(Br)cc(S(=O)(=O)c2cccc(N)c2C#N)c1	RT-V106A Y181C	HeLa + HELA CD4+	β-galactosidase	-	EC50	0.49 µM
C1CNCCNCCCN(CCCC2CNCCCNCCNCCCN2)CCNC1	-	MT-4	cytopathic effect / MTT	IIIB	EC50	1.96 µM
C#Cc1ccc(Nc2nccc(Oc3c(C)cc(-c4cn(CC(=O)Nc5ccc(Br)cc5)nn4)cc3C)n2)cc1	K103N	MT-4	MTT	IIIB	EC50	>19.78 µM
CC(C)CN(C[C@@H](O)[C@H](Cc1ccccc1)NC(=O)O[C@H]1CCOC1)S(=O)(=O)c1ccc(N)cc1	-	MT-2	MTT	LAI	EC50	0.033 µM
Cc1cn([C@H]2C[C@H](N=[N+]=[N-])[C@@H](CO)O2)c(=O)[nH]c1=O	-	PBMC	p24	NL4-3 WT	EC50	0.001 µM
C#Cc1ccc(Nc2nccc(Oc3c(C)cc(-c4cn(CCc5ccccc5)nn4)cc3C)n2)cc1	Y181C	MT-4	MTT	IIIB	EC50	>5.66 µM
O=c1[nH]cnc2c1ncn2[C@H]1CC[C@@H](CO)O1	RT-L100I	CEM	syncytia	IIIB-BHAP)(0.1)(RT-L100I	EC50	13 µM
CC(C)CN(C[C@@H](O)[C@H](Cc1ccccc1)NC(=O)[C@H](CC(N)=O)NC(=O)c1ccc2ccccc2n1)C(=O)NC(C)(C)C	PR-M46I	MT-4	p24	NL4-3	EC50	<0.2 µM
CC(C)=CCN1Cc2cc(Cl)cc3[nH]c(=S)n(c23)C[C@@H]1C	RT-Y188C	CEM	cytopathic effect / XTT	IIIB	EC50	3 µM
COC(=O)[C@H](C)NP(=O)(OC[C@@H]1C=C[C@H](n2cc(C)c(=O)[nH]c2=O)O1)Oc1ccc(Br)cc1	RT-T69K K70G V75I F77L F116Y Q151M M184V	PBMC	p24	1617-1 NRTI resistant recombinant	EC50	0.0199 µM
Cc1cn([C@H]2C=C[C@@H](CO)O2)c(=O)[nH]c1=O	T69ins/K70R/M184V/K219Q	MT-2	recombinant virus assay	Clinical isolate	EC50	3.408 µM
Cc1cc(S(N)(=O)=O)ccc1NC(=O)COc1ccc(Cl)cc1C(=O)c1cc(N)cc(C#N)c1	WTRVA	HeLa	-	-	EC50	0.0015 µM
C/C=C/CSc1cc(NC(=S)c2ccsc2C)ccc1Cl	RT-K103N	CEM + CEM-SS	cytopathic effect / XTT	NL4-3 (RT K103N)	EC50	0.8 µM
COC(=O)Nc1cc(C#N)cc(C(=O)c2cc(Cl)ccc2OCC(=O)Nc2ccc(S(N)(=O)=O)cc2C)c1	WTRVA	HeLa	-	-	EC50	0.0035 µM
Cc1ccnc2c1NC(=O)c1cccnc1N2C1CC1	-	MT-4	MTT	92BR014 (subtype B)	EC50	0.01 µg/mL
Cc1occc1C(=S)Nc1ccc(Cl)c(/C=N/OC(C)(C)C)c1	RT-Y181C	CEM + CEM-SS	cytopathic effect / XTT	NL4-3 (RT Y181C)	EC50	0.5 µM
Cc1cc(O)cc(S(=O)(=O)c2cccc(N)c2C#N)c1	RT-L100I K103N	HeLa + HELA CD4+	β-galactosidase	-	EC50	5 µM
CCN[C@H]1CO[C@@H]2OCC[C@H](OC(=O)N[C@@H](Cc3ccccc3)[C@H](O)CN(CC(C)C)S(=O)(=O)c3ccc4nc(NC5CC5)sc4c3)[C@@H]21	L10F M46I I54V V82A	MT-4	p24 / luminescence	NL4-3	EC50	0.0039 µM
CCNc1cccnc1N1CCN(C(=O)c2cc3cc(OC)ccc3[nH]2)CC1	RT-L100I	CEM	syncytia	IIIB-TIBO(0.5)(RT-L100I)	EC50	1.3 µg/mL
Fc1cccc(F)c1[C@H]1SCc2nc3ccccc3n21	-	CEM + CEM-SS	cytopathic effect / XTT	RF	EC50	0.21 µM
COC(=O)N[C@H](C(=O)N[C@@H](Cc1ccccc1)[C@@H](O)CN(Cc1ccc(-c2ccccn2)cc1)NC(=O)[C@@H](NC(=O)OC)C(C)(C)C)C(C)(C)C	L10F L33I M36I M46I I54V K55R I62V L63P A71V G73S V82T	MT-4	p24 / luminescence	NL4-3	EC50	>1 µM
N#CCN1C(=O)N(Cc2cccc(F)c2)S(=O)(=O)c2cscc21	RT-K103N	CEM	syncytia	-	EC50	28.5 µM
Cc1cc(S(N)(=O)=O)ccc1NC(=O)COc1ccc(Cl)cc1C(=O)c1cc(C#N)cc([N+](=O)[O-])c1	WTRVA	HeLa	-	-	EC50	0.0005 µM
CC(C)(C)NC(=O)[C@@H]1CN(Cc2cccnc2)CCN1C[C@@H](O)C[C@@H](Cc1ccccc1)C(=O)N[C@H]1c2ccccc2C[C@H]1O	RT-T69K K70G V75I F77L F116Y Q151M M184V	PBMC	p24	56252-1 NRTI resistant recombinant	EC50	0.009 µM
CC(=O)Oc1ccc(/C=C/C(=O)O[C@H](C(=O)O)[C@H](OC(=O)/C=C/c2ccc(OC(C)=O)c(OC(C)=O)c2)C(=O)O)cc1OC(C)=O	gp120 S158N N293D T370N T376N E377Q	MT-4	-	NL4-3	EC50	7.8 µM
COC(=O)N[C@H](C(=O)N[C@@H](Cc1ccccc1)[C@@H](O)CN(Cc1ccc(-c2ccccn2)cc1)NC(=O)[C@@H](NC(=O)OC)C(C)(C)C)C(C)(C)C	-	MT-2	MTT	LAI	EC50	0.0048 µM
Cc1cc(C#Cc2cccnc2)cc(C)c1Oc1ccnc(Nc2ccc(C#N)cc2)n1	E138K	MT-4	MTT	IIIB	EC50	0.022 µM
C#Cc1ccc(Nc2nccc(Oc3c(C)cc(-c4cn(Cc5ccc(C(N)=O)cc5)nn4)cc3C)n2)cc1	-	MT-4	MTT	RES056	EC50	>13.84 µM
Cc1cc(C#Cc2cccc(N)c2)cc(C)c1Oc1ccnc(NC2CCN(c3cccc(C(N)=O)c3)CC2)n1	L100I	MT-4	MTT	IIIB	EC50	>1.063 µM
Fc1cccc(F)c1[C@@H]1SCc2nc3ccccc3n21	RT-K103N	CEM	cytopathic effect / XTT	IIIB	EC50	12.1 µM
C#Cc1ccc(Nc2nccc(Oc3c(C)cc(-c4cn(Cc5cccc([N+](=O)[O-])c5)nn4)cc3C)n2)cc1	-	MT-4	MTT	RES056	EC50	>101 µM
CC(C)=CCN1Cc2cc(Cl)cc3[nH]c(=S)n(c23)C[C@@H]1C	RT-K70R K101E	MT-4	-	-	EC50	<3 µM
Cc1cc(S(N)(=O)=O)ccc1NC(=O)COc1ccc(Cl)cc1C(=O)c1cc(C#N)cc(OC(F)(F)F)c1	K103N	HeLa	-	-	EC50	0.0002 µM
C#Cc1ccc(Nc2nccc(Oc3c(C)cc(-c4cn(-c5cccc(C(=O)OC)c5)nn4)cc3C)n2)cc1	K103N	MT-4	MTT	IIIB	EC50	0.043 µM
c1cc(CN2CCCNCCNCCCNCC2)ccc1CN1CCCNCCNCCCNCC1	-	MT-4	MTT	39RW024 (subtype A)	EC50	0.001 µg/mL
Cc1cc(C#Cc2ccccn2)cc(C)c1Oc1ccnc(Nc2ccc(C#N)cc2)n1	Y181C	MT-4	MTT	IIIB	EC50	1.231 µM
CN[C@H]1CO[C@@H]2OCC[C@H](OC(=O)N[C@@H](Cc3cccc(OC)c3)[C@H](O)CN(CC(C)C)S(=O)(=O)c3ccc4nc(NC(C)C)sc4c3)[C@@H]21	L10F V32I L33F M46L I54M A71V	MT-4	p24 / luminescence	NL4-3	EC50	0.025 µM
Nc1nc(=O)n([C@@H]2CS[C@H](CO)O2)cc1F	M41L/D67N/K70R/Y181C/G190A/L210W/T215Y/K219E	MT-2	recombinant virus assay	Clinical isolate	EC50	0.8256 µM
Cc1cc(Cl)cc(S(=O)(=O)c2cccc(N)c2C#N)c1	RT-P236L	HeLa + HELA CD4+	β-galactosidase	-	EC50	0.011 µM
CCN[C@H]1CO[C@@H]2OCC[C@H](OC(=O)N[C@@H](Cc3cccc(OC)c3)[C@H](O)CN(CC(C)C)S(=O)(=O)c3ccc4nc(NC(C)C)sc4c3)[C@@H]21	L10I M46L I54V V82A	MT-4	p24 / luminescence	NL4-3	EC50	0.0044 µM
Cc1cn([C@H]2C=C[C@@H](CO)O2)c(=O)[nH]c1=O	-	MT-2	cytopathic effect / MTT	IIIB	EC50	1.3 µM
Cc1cn([C@H]2C[C@H](N=[N+]=[N-])[C@@H](CO)O2)c(=O)[nH]c1=O	-	U-937	cytopathic effect / XTT	IIIB	EC50	0.003 µM
CC(=O)c1ccc(C)cc1NC(C(N)=O)c1c(Cl)cccc1Cl	RT-V189I	MAGI	MTT	IIIB	EC50	0.22 µM